Patent publication US12612459B2, “Methods of identifying agents that block MCD28 cleavage by MMPS” (BIOND BIOLOGICS LTD., priority 2019, dated 2026)

System: SEB or CMV stimulated human PBMCs
Settings: PBMCs from healthy human donors activated with SEB or CMV; sCD28 by ELISA; FIG. 2A-B

## ARP-100
  CD28 cleavage and sCD28 production: capable of suppressing CD28 cleavage and sCD28 production
